Measured values taken from ChEMBL document CHEMBL3872213, “Synthesis and biological activity of furoxan derivatives against Mycobacterium tuberculosis” (Eur J Med Chem, 2016).
≈ marks a conversion by molar mass, not a printed value.

Test system: Mycobacterium tuberculosis
Details: H37Rv ATCC 27294

SMILES: O=[N+]([O-])c1no[n+]([O-])c1-c1ccccc1
- MIC90: 14 µM (≈ 2.9 µg/mL)
